Measured values from several laboratories, pooled; numbers as filed in NIAID ChemDB.

All rows: whole-cell or culture tests; organism: Mycobacterium fortuitum

ECn: concentration that inhibits the pathogen or its effect by n%.

compound,measure,strain or isolate,tested at,setting,read by,value
CN[C@@H]1[C@@H](O)[C@@H](O[C@@H]2[C@@H](O)[C@H](O[C@H]3O[C@H](CN)CC[C@H]3N)[C@@H](N)C[C@H]2N)OC[C@]1(C)O,MBC,ATCC 6841,-,-,-,32 µg/mL
CO[C@H]1/C=C/O[C@@]2(C)Oc3c(C)c(O)c4c(O)c(c(/C=N/N5CCN(C6CCCC6)CC5)c(O)c4c3C2=O)NC(=O)/C(C)=C\C=C\[C@H](C)[C@H](O)[C@@H](C)[C@@H](O)[C@@H](C)[C@H](OC(C)=O)[C@@H]1C,MIC90,48 strains,-,-,-,0.25 µg/mL
CN[C@@H]1[C@H](O)[C@H](NC)[C@H]2O[C@@]3(O)C(=O)C[C@@H](C)O[C@H]3O[C@@H]2[C@H]1O,MBC,ATCC 6841,-,-,-,>64 µg/mL
CCN1CCN(c2nc3c(cc2F)c(=O)c(C(=O)O)cn3C2CC2)CC1,MIC,ATCC 6841,-,-,-,0.25 µg/mL
CC[C@@H](C)N1CCN(c2cc(=O)c3nc4c(oc3c2)c2c(=O)c3c(O)c(C)c5c(c34)=C(O)[C@@](C)(O/C=C/[C@H](OC)[C@@H](C)[C@@H](OC(C)=O)[C@H](C)[C@H](O)[C@H](C)[C@@H](O)[C@@H](C)/C=C/C=C(/C)C(=O)N2)O5)CC1,MIC90,20 strains,-,-,-,>100 µg/mL
CO[C@@H]1[C@@H](O[C@@H]2O[C@H](C)[C@@H](O[C@H]3C[C@@](C)(O)[C@@H](OC(=O)CC(C)C)[C@H](C)O3)[C@H](N(C)C)[C@H]2O)[C@@H](CC=O)C[C@@H](C)[C@@H](O)/C=C/C=C/C[C@@H](C)OC(=O)C[C@H]1OC(C)=O,MIC90,48 strains,-,-,-,>64 µg/mL
O=C(O)c1cn(-c2ccc(F)cc2F)c2nc(N3CCNCC3)c(F)cc2c1=O,MIC,ATCC 6841,-,-,-,0.13 µg/mL
CC[C@H]1OC(=O)[C@H](C)C(=O)[C@H](C)[C@@H](O[C@@H]2O[C@H](C)C[C@H](N(C)C)[C@H]2O)[C@](C)(OC)C[C@@H](C)C(=O)[C@H](C)[C@H]2N(CCCCn3cnc(-c4cccnc4)c3)C(=O)O[C@]12C,MIC50,48 strains,-,-,-,>64 µg/mL
CC1CN(c2c(F)cc3c(=O)c(C(=O)O)cn(C4CC4)c3c2C(F)(F)F)CC(C)N1,MIC,ATCC 6841,-,-,-,0.5 µg/mL
Nc1ccc(C(=O)O)c(O)c1,EC50,22 strains,-,-,agar,>10 µg/mL
NC1CCN(c2nc3c(cc2F)c(=O)c(C(=O)O)cn3-c2ccc(F)cc2F)C1,MBC90,25 isolates,-,-,-,>8 µg/mL
CCC(C)N1CCN(c2cc(=O)c3nc4c(oc3c2)c2c(=O)c3c(O)c(C)c5c(c34)=C(O)[C@@](C)(O/C=C/[C@H](OC)[C@@H](C)[C@@H](OC(C)=O)[C@H](C)[C@H](O)[C@H](C)[C@@H](O)[C@@H](C)/C=C/C=C(/C)C(=O)N2)O5)CC1,MIC90,20 strains,-,-,-,>100 µg/mL
CC1CN(c2c(F)cc3c(=O)c(C(=O)O)cn(C4CC4)c3c2F)CCN1,MIC,ATCC 6841,-,-,-,0.06 µg/mL
CCC(C)(C)c1ccc(/C=N/N=C(\N)c2ccccn2)cc1,EC50,-,-,-,-,>1000 µM
CC1CN(c2c(F)cc3c(=O)c(C(=O)O)cn(-c4ccc(F)cc4F)c3c2F)CC(C)N1,MIC,ATCC 6841,-,-,-,0.5 µg/mL
NCC[C@H](O)C(=O)N[C@@H]1C[C@H](N)[C@@H](O[C@H]2O[C@H](CN)[C@@H](O)[C@H](O)[C@H]2O)[C@H](O)[C@H]1O[C@H]1O[C@H](CO)[C@@H](O)[C@H](N)[C@H]1O,MIC50,10 strains,-,-,-,0.5 µg/mL
CCOc1c(N2CCNC(C)C2)c(F)cc2c(=O)c(C(=O)O)cn(C3CC3)c12,MIC,ATCC 6841,-,-,-,0.06 µg/mL
N/C(=N\N=C1CCCCCCCCCCC1)c1ccccn1,inhibition,-,100 µM,-,-,1.8%
O=C(O)c1cn(C2CC2)c2c(C(F)(F)F)c(N3CCNCC3)c(F)cc2c1=O,MIC,ATCC 6841,-,-,-,0.25 µg/mL
CC(C)(C)c1ccc(/C=N/N=C(\N)c2ccccn2)cc1,inhibition,-,100 µM,-,-,1.1%
Nc1nc(N)c2c(n1)NC(c1ccc(C(F)(F)F)cc1)CC(c1ccc3c(c1)OCO3)=N2,MIC,MNT1073,-,clinical isolate,MTT / broth dilution / absorbance,>32 µg/mL

A second listing of 3 rows from above:

compound | measure | strain or isolate | tested at | setting | read by | value
NCC[C@H](O)C(=O)N[C@@H]1C[C@H](N)[C@@H](O[C@H]2O[C@H](CN)[C@@H](O)[C@H](O)[C@H]2O)[C@H](O)[C@H]1O[C@H]1O[C@H](CO)[C@@H](O)[C@H](N)[C@H]1O | MIC50 | 10 strains | - | - | - | 0.5 µg/mL
CN[C@@H]1[C@H](O)[C@H](NC)[C@H]2O[C@@]3(O)C(=O)C[C@@H](C)O[C@H]3O[C@@H]2[C@H]1O | MBC | ATCC 6841 | - | - | - | >64 µg/mL
N/C(=N\N=C1CCCCCCCCCCC1)c1ccccn1 | inhibition | - | 100 µM | - | - | 1.8%

An empty or dashed field is not shown. Rows are shuffled and stem from different studies. MIC50, MIC90 and the like: level of inhibition, or share of isolates inhibited. Percent inhibition refers to the dose given; in toxicity tests it is the harm to the cells.